Compound potency records, mixed from different reports. Data source: NIAID ChemDB in PubChem.

Shared fields: toxicity to cultured cells; read-out: CC50

CCn is the concentration with n% toxicity to the cells. Conditions beyond the fields shown may differ between rows.

{"SMILES": "Nc1ncnc2c1ncn2C1CC(COP(=O)(O)O)[C@@H](O)[C@H]1O", "cells": "HeLa", "result": "20 µg/mL"}
{"SMILES": "Nc1nc(=O)n([C@@H]2C=C(CO)[C@@H](O)[C@H]2O)cc1F", "cells": "VERO", "result": "100 µg/mL"}
{"SMILES": "S=c1cc(-c2ccc(Cl)cc2)s[nH]1", "cells": "HEP-2", "result": "87.5 µM"}
{"SMILES": "CC(=O)N1C(=O)C(=Nc2ccc(S(=O)(=O)Nc3nc(C)cc(C)n3)cc2)c2ccccc21", "cells": "HFF", "result": ">300 µM"}
{"SMILES": "c1ccc(-c2cc(SSc3cc(-c4ccccc4)sn3)ns2)cc1", "cells": "HEP-2", "result": "89.28 µM"}
{"SMILES": "Cc1cc(C)nc(NS(=O)(=O)c2ccc(N=C3C(=O)Nc4ccccc43)cc2)n1", "cells": "HFF", "result": ">300 µM"}
{"SMILES": "CS/C(N)=N\\N=C(/C)c1cccc(Cl)c1", "cells": "Chorioallantoic membrane", "result": "707.5 µg/mL"}
{"SMILES": "CN1CCc2cc3c(cc2C(=O)Cc2ccc4c(c2C1)OCO4)OCO3", "cells": "CEF", "result": "60 µM"}
{"SMILES": "CCCCCCCCCCCCCCCCCCOCCOP(=O)(O)COCCn1cnc2c(=O)[nH]c(N)nc21", "cells": "HFF", "result": "1.9 µM"}
{"SMILES": "Cc1cn([C@@H]2O[C@H](CO)[C@@H](O)[C@@H]2F)c(=O)[nH]c1=O", "cells": "C1271", "result": "17 µM"}
{"SMILES": "O=c1[nH]cnc2c1ncn2[C@@H]1C=C(CO)[C@@H](O)[C@H]1O", "cells": "VERO", "result": ">100 µg/mL"}
{"SMILES": "CO[C@H]1[C@@H](O)[C@H](n2cnc3c(N)ncnc32)O[C@@H]1CO", "cells": "VERO", "result": "400 µM"}
{"SMILES": "Nc1ncnc2c1ncn2[C@@H]1C[C@H](CO)[C@@H](O)[C@H]1O", "cells": "PRK", "result": "4 µg/mL"}
{"SMILES": "Nc1ncnc2c1nc(Br)n2[C@@H]1O[C@H](CO)[C@@H](O)[C@H]1O", "cells": "VERO", "result": "415 µM"}
{"SMILES": "CCCCCCCCCCCCOc1ccc(/C=C/C(C)=N/N=C(/N)SC)cc1", "cells": "Chorioallantoic membrane", "result": ">1000 µg/mL"}
{"SMILES": "Nc1ccn([C@@H]2O[C@H](CO)[C@@H](O)[C@@H]2O)c(=O)n1", "cells": "C1271", "result": "0.4 µM"}
{"SMILES": "Cc1cc(C)nc(NS(=O)(=O)c2ccc(N=C3C(=O)Nc4ccc(Cl)cc43)cc2)n1", "cells": "HFF", "result": ">300 µM"}
{"SMILES": "Nc1ccn(C[C@@H](CO)OCP(=O)(O)O)c(=O)n1", "cells": "C1271", "result": "180 µM"}
{"SMILES": "Nc1ncnc2c1ncn2[C@@H]1C[C@H](CO)[C@@H](O)[C@H]1O", "cells": "L929", "result": "4.3 µM"}
{"SMILES": "CS/C(N)=N\\N=C\\c1ccc(Cl)cc1Cl", "cells": "Chorioallantoic membrane", "result": "632.5 µg/mL"}